Like-named read-outs stand apart in the source and are kept apart here.
How the values were obtained:
[1] = tested on: HIV-1 provirus in U1 cells; test: U1 activation (latency) assay, p24 ELISA; type: cell-based; settings: for IC50: read-out: U1 cell IC50
Rev-RRE IIB interaction = Rev-RRE IIB interaction (Human immunodeficiency virus type 1 group M subtype B, UniProt P04608+P04618); settings: for EC50: read-out: Tat-hybrid EC50
HIV-1 isolate NL4-3 = test: Virus spreading / replication assay in Jurkat cells, p24 ELISA; type: cell-based; settings: read-out: Jurkat HIV-1 replication assay, Table 2

How did the IC50 ([1]; Table 1) turn out when `Cc1cc(C)c2c(N)c(C(N)=O)sc2n1` was run?
Its IC50 is greater than 500 nM.

What about the EC50 (Rev-RRE IIB interaction; Table 1) of the same compound?
The EC50 was greater than 500 nM.

How did the EC50 (Rev-RRE IIB interaction; Table 1) turn out when `Cc1cc(C)c2c(N)c(C(=O)O)sc2n1` was run?
The EC50 was greater than 500 nM.

What does the source list for `NC(=O)c1cc2c(-c3ccc4ccccc4c3)cncc2s1`?
IC50 ([1]; Table 2): < 100 nM; IC50 (HIV-1 isolate NL4-3): < 100 nM; EC50 (Rev-RRE IIB interaction; Table 2): < 100 nM

`NC(=O)c1cc2c(-c3cnc4ccccc4c3)cncc2s1` was tested. Which IC50 ([1]; Table 2) did it give?
The IC50 was less than 100 nM.

What about the IC50 (HIV-1 isolate NL4-3) of the same compound?
The IC50 was less than 100 nM.

What about the EC50 (Rev-RRE IIB interaction; Table 2) of the same compound?
Its EC50 is less than 100 nM.

How did the IC50 ([1]; Table 2) turn out when `NC(=O)c1cc2c(-c3ccc(Oc4ccccc4)cc3)cncc2s1` was run?
Its IC50 is less than 100 nM.

What about the EC50 (Rev-RRE IIB interaction; Table 2) of the same compound?
The EC50 was 100 to 500 nM.

`CCc1c(C)nc2sc(C(N)=O)c(N)c2c1C` was tested. Which IC50 ([1]; Table 1) did it give?
The IC50 was greater than 500 nM.

And the EC50 (Rev-RRE IIB interaction; Table 1)?
Its EC50 is greater than 500 nM.

For `CC(=O)c1sc2nc(C)cc(C)c2c1N`, which EC50 (Rev-RRE IIB interaction; Table 1) is on record?
The EC50 was greater than 500 nM.

What does the source list for `COCc1cc(C)nc2sc(C(N)=O)c(N)c12`?
IC50 ([1]; Table 1): > 500 nM; EC50 (Rev-RRE IIB interaction; Table 1): > 500 nM

How did the EC50 (Rev-RRE IIB interaction; Table 2) turn out when `NC(=O)c1sc2cncc(-c3cccc(-c4ccccc4)c3)c2c1N` was run?
Its EC50 is greater than 500 nM.

For `CN(C)c1ccc(-c2cncc3sc(C(N)=O)c(N)c23)cc1`, which IC50 ([1]; Table 2) is on record?
The IC50 was less than 100 nM.

What about the EC50 (Rev-RRE IIB interaction; Table 2) of the same compound?
The EC50 was 100 to 500 nM.

Which results are given for `CN(C)c1cncc2sc(C(N)=O)c(N)c12`?
potency in the U1 assay [1]: sub-μM potency; IC50 ([1]; Table 1): 100 to 500 nM; activity in the Tat-hybrid reporter assay (Rev-RRE IIB interaction): sub-μM potency; EC50 (Rev-RRE IIB interaction; Table 1): > 500 nM

— patent US10154992B2, “Compounds and methods for treating HIV infection” (THE REGENTS OF THE UNIVERSITY OF CALIFORNIA, priority 2016, dated 2018)
